Reference: article PMC3731144 (Proteins, 2012)

Assays:
Test in all cases: SPR
[1] = target: gp120YU2 M475A (HIV-1 strain YU2)
[2] = target: gp120YU2 M95A (HIV-1 strain YU2)
[3] = target: gp120YU2 R476A (HIV-1 strain YU2)
[4] = target: gp120YU2 E370A (HIV-1 strain YU2)
[5] = target: gp120YU2 T257A (HIV-1 strain YU2)

Substance: Hexahis-tagged 4-domain soluble CD4 (receptor)
- Kd [1]: 28 nM
- Kd [2]: 17 nM
- Kd [3]: 28 nM
- Kd [4]: 25 nM
- Kd [5]: 72 nM
